Patent US11879893B2, “Rapid detection test for SARS-CoV-2” (priority 2020, dated 2024)

Target: T1, 3CL (Severe acute respiratory syndrome coronavirus 2, UniProt P0DTC1)
T1 construct: 6xHIS-tag (N); TEV-protease cleavage site (ENLYFQG) (N); made in house; host or cells: Rosetta BL21 E. coli, pET14b
Type: biochemical, SARS-CoV-2
Conditions: RT for 5 hrs, 0.2 mg/mL

## BSA
  enzyme activity after incubation with reaction stabilizer: retained its activity
